This is an account of results in PubChem BioAssay AID602481 (Broad Institute, 2012).

This is a selection; strong and weak results do not stand in their true shares. Active and inactive are the calls of the source. Cut-off read from the data, not from the text of the source: active = inhibition above about 40%; inconclusive = no clear call, values can overlap the other calls; inactive = below that.

In this test the test system is 7,8-diaminopelargonic acid synthase BioA (Mycobacterium tuberculosis). Kind of test: M. tuberculosis BioA enzyme inhibitors, primary screen, biochemical, plate reader, single point, HTS (AID 602481). The conditions noted are these: purified M. tuberculosis BioA enzyme, at 9.99 µM, hits give high values.
What is called inhibition is the change of the read-out against control, counted positive when it falls. In the case of `O=C(NCC1(N2CCCCC2)CCCCC1)c1ccc(=O)[nH]c1`, the inhibition is inactive: -3.14%. As for `CCCCn1nnnc1C(CC)N1CCC(n2c(=O)[nH]c3ccccc32)CC1` (stereo unspecified), the inhibition is inactive: 0.837%. As for `O=C(NCC1(N2CCCCC2)CCCCC1)c1cccs1`, the inhibition is inactive: -2.73%. To `CCCCn1nnnc1C(c1cccs1)N1CCC(n2c(=O)[nH]c3ccccc32)CC1` (stereo unspecified) belongs inactive: 2.39%; to `COc1ccc(C(=O)NCC2(N3CCCCC3)CCCCC2)cc1`, inactive: -0.915%.

On to `CC(C)(C)OC(=O)N1CCC(N(C(=O)c2ccccc2)c2ccc(F)cc2)CC1`, for which the inhibition was inactive: -1.09%.

`CCC(c1nnnn1C1CCCC1)N1CCC(n2c(=O)[nH]c3ccccc32)CC1` (stereo unspecified): the inhibition was inactive: 1.58%.

Consider `CSc1ccccc1C(=O)NCC1(N2CCCCC2)CCCCC1`, for which the inhibition is inactive: -2.6%. The same measure for `Cc1cccc(NC2(C#N)CCN(Cc3ccccc3)CC2)c1`: inactive: 0.822%.

As to `CN1CCC(Nc2cccc(F)c2)CC1`, the inhibition is inactive: 0.85%.

Turning to `O=C(NCC1(N2CCCCC2)CCCCC1)c1cncc(Br)c1`, the inhibition is inactive: -0.803%. In the case of `Cc1ccc(C(=O)NCC2(N(C)C)CCCCC2)o1`, the inhibition is inactive: -2.44%. The same measure for `CCCOc1ccc(C(=O)NCC2(N(C)C)CCCCC2)cc1OC`: inactive: -0.723%; for `COc1ccc(C(c2nnnn2C2CCCC2)N2CCC(n3c(=O)[nH]c4ccccc43)CC2)cc1` (stereo unspecified): inactive: -0.968%; for `CN(C)c1cccc(C(=O)NCC2(N3CCCCC3)CCCCC2)c1`: inactive: -0.814%. The same measure for `CCCCn1nnnc1C(c1ccccc1OC(F)(F)F)N1CCC(n2c(=O)[nH]c3ccccc32)CC1` (stereo unspecified): inactive: -8.01%; for `CCCCn1nnnc1C(c1ccnc2ccccc12)N1CCC(n2c(=O)[nH]c3ccccc32)CC1` (stereo unspecified): inactive: 11.9%; for `COc1cc(OC)c(C(=O)NCC2(N(C)C)CCCCC2)cc1OC`: inactive: -0.545%.

Take `O=C(NCC1(N2CCOCC2)CCCCC1)c1cc(F)c(F)cc1Cl`: the inhibition is inactive: -0.235%. As to `CCC(c1nnnn1C(C)(C)C)N1CCC(n2c(=O)[nH]c3ccccc32)CC1` (stereo unspecified), the inhibition was inactive: -1.66%. The same measure for `O=C(NCC1(N2CCCCC2)CCCCC1)c1cccc(C(F)(F)F)c1`: inactive: -1.92%; for `CN1CCN(CCOC(=O)C(O)(c2ccccc2)c2ccccc2)CC1`: inactive: -0.351%. The same measure for `CCCCn1nnnc1C(c1cccc2ccccc12)N1CCC(n2c(=O)[nH]c3ccccc32)CC1` (stereo unspecified): inactive: -0.749%; for `COc1cc(C(=O)NCC2(N3CCCCC3)CCCCC2)ccc1OC(F)F`: inactive: -7.26%; for `O=C(NCC1(N2CCOCC2)CCCCC1)c1cc(=O)[nH]c2ccccc12`: inactive: -0.515%. Take `CC(C)(C)n1nnnc1C(c1ccccc1OC(F)(F)F)N1CCC(n2c(=O)[nH]c3ccccc32)CC1` (stereo unspecified): the inhibition was inactive: -2.36%. To `O=C(NCC1(N2CCCCC2)CCCCC1)c1ccc(OC(F)F)cc1` belongs inactive: -2.08%; to `CSc1ccc(C(=O)NCC2(N3CCOCC3)CCCCC2)cc1`, inactive: -0.541%; to `CCN1CCC(Nc2ccc(Cl)cc2)CC1`, inactive: 2.04%.

As to `O=c1[nH]c2ccccc2n1C1CCN(C(c2ccccc2OC(F)(F)F)c2nnnn2C2CCCC2)CC1` (stereo unspecified), the inhibition was inactive: -3.84%. Consider `N#CC1(Nc2ccccc2)CCN(CCc2ccccc2)CC1`, for which the inhibition is inactive: 2.06%.
